{"source": "PubChem BioAssay AID504761 | Drosophila RNAi Screening Center – 2011", "assay": "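Insect host genes that dengue virus relies on to spread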 (primary screen)", "cell system": "D.Mel-2 cells from Drosophila", "knock-down reagent": "long dsRNA against Drosophila genes", "treatment": "infection with dengue virus type 2; dose and infection time not stated", "detection": "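Cells stained for dengue envelope protein and imaged; percent of infected cells per well on duplicate plates, ranked by infection, with stained nuclei counted for cell number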", "scale": "infection score: higher = more virus-infected cells; cell count: higher = more cells in the well", "hit rule": "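Low infection ranks in the two replicates (chance level up to 0.065) followed by a retest with a 1.5-fold or larger significant decrease, p below 0.05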", "calls": "active = confirmed: knock-down lowers infection; inactive = not picked or not confirmed", "note": "The screen tested about 22,000 reagents; shown is an unselected part of those with a known target gene and a result. In the full data, 116 (0.52%) are marked active. 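Calls depend on retest data that are not deposited; infection was ranked per plate without normalising between plates; the unit of the infection score is not given.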 Raw values are not corrected between plates. Not all columns of the deposit are shown. Not stated in the record: the amount of reagent, the time to read-out."}
{"gene": "CG12699", "dsRNA": "DRSC06162", "infection score, replicate 1": 10.8, "cell count, replicate 1": 5676, "Outcome": "inactive"}
{"gene": "CG12699", "dsRNA": "DRSC25679", "infection score, replicate 1": 2.08, "cell count, replicate 1": 7030, "Outcome": "inactive"}
{"gene": "Ir7e (Ionotropic receptor 7e)", "dsRNA": "DRSC18011", "infection score, replicate 1": 1.79, "cell count, replicate 1": 6763, "Outcome": "inactive"}
{"gene": "Prat (Phosphoribosylamidotransferase)", "dsRNA": "DRSC16797", "infection score, replicate 1": 19.4, "cell count, replicate 1": 5805, "Outcome": "inactive"}
{"gene": "Hydr2 (alpha/beta hydrolase2)", "dsRNA": "DRSC00607", "infection score, replicate 1": 5.93, "cell count, replicate 1": 6090, "Outcome": "inactive"}
{"gene": "cato (cousin of atonal)", "dsRNA": "DRSC07589", "infection score, replicate 1": 9.91, "cell count, replicate 1": 5822, "Outcome": "inactive"}

Just “cell count, replicate 1”, for 2 of the entries above:
CG12699 [DRSC06162] = 5676
CG12699 [DRSC25679] = 7030

Further entries:
{"gene": "IntS3 (Integrator 3)", "dsRNA": "DRSC21215", "infection score, replicate 1": 4.65, "cell count, replicate 1": 6218, "Outcome": "inactive"}
{"gene": "S6KL (S6 Kinase Like)", "dsRNA": "DRSC19349", "infection score, replicate 1": 0.72, "cell count, replicate 1": 6012, "Outcome": "inactive"}
{"gene": "S6KL (S6 Kinase Like)", "dsRNA": "DRSC23147", "infection score, replicate 1": 0.65, "cell count, replicate 1": 6911, "Outcome": "inactive"}
{"gene": "Ugt36F1 (UDP-glycosyltransferase family 36 member F1)", "dsRNA": "DRSC02601", "infection score, replicate 1": 7.42, "cell count, replicate 1": 5428, "Outcome": "inactive"}
{"gene": "Rpn5 (Regulatory particle non-ATPase 5)", "dsRNA": "DRSC12367", "infection score, replicate 1": 5.39, "cell count, replicate 1": 2986, "Outcome": "inactive"}
{"gene": "Rpn5 (Regulatory particle non-ATPase 5)", "dsRNA": "DRSC28279", "infection score, replicate 1": 8.67, "cell count, replicate 1": 2756, "Outcome": "inactive"}
